From PMC4322365, “A Ligand-observed Mass Spectrometry Approach Integrated into the Fragment Based Lead Discovery Pipeline” (Scientific Reports, 2015)

test: Recovery rate of fragment after ultrafiltration (nonspecific binding to filter membrane); settings: MS intensity of the fragment before and after ultrafiltration

**Q.** For `Oc1ccc(F)c(Cl)c1` [Fragment 85], which “Recovery rate (%)” value is on record?
**A.** The value was 75.6%.

**Q.** With `Cc1ccc2oc(=O)ccc2c1` [Fragment 117] as the molecule, how does the “Recovery rate (%)” value read?
**A.** The value was 57.8%.

**Q.** For `Cn1c(=O)cc(O)c2ccccc21` [Fragment 130], which “Recovery rate (%)” value is on record?
**A.** The value was 72.9%.

**Q.** Which “Recovery rate (%)” value does the source give for `Cc1cc(N)n(-c2ccccc2)n1` [Fragment 131] here?
**A.** Its value is 77.1%.

**Q.** Which “Recovery rate (%)” value does the source give for `Nc1ccc(C(F)(F)F)cn1` [Fragment 162] here?
**A.** The value was 60.6%.

**Q.** For `O=C(O)c1ccc(C(F)(F)F)cc1` [Fragment 204], which “Recovery rate (%)” value is on record?
**A.** The value was 64.4%.

**Q.** With `Oc1ccc(SC(F)(F)F)cc1` [Fragment 237] as the molecule, how does the “Recovery rate (%)” value read?
**A.** The value was 86.7%.

**Q.** For `Cc1nc2ccccc2nc1C` [Fragment 339], which “Recovery rate (%)” value is on record?
**A.** Its value is 94.4%.
